Assay results as given in US20260078171A1.

Assays:
[1] = molecular target: Frankfurt 1 (SARS-CoV isolate Frankfurt 1)

ACE2-Fc (Fc fusion)
KD App (SARS-CoV-1 (SARS-CoV)): 8.24 nM
KD App (SARS-CoV-2 (SARS-CoV-2)): 10.4 nM
KD App [1]: 8.74 nM
